Reference: US20060094071A1, “Method for enriching and tracking pathologic modified prions-proteins(prpsc)” (priority 2002, published 2006)

Target: pathologically-altered prion protein (PrP^Sc) from BSE-positive cattle (cattle) (UniProt P10279)

Peptide 7 (Propionyl-DArg-DArg-DAla-DPhe-DPhe-DVal-amide)
Efficiency (relative PrP^Sc binding efficiency, peptide 2 = 100%): 76.5%
